The chains behind the UniProt entries cited, without tags or fusion partners. Residues count along the entry.
UniProt P02786, 121-760: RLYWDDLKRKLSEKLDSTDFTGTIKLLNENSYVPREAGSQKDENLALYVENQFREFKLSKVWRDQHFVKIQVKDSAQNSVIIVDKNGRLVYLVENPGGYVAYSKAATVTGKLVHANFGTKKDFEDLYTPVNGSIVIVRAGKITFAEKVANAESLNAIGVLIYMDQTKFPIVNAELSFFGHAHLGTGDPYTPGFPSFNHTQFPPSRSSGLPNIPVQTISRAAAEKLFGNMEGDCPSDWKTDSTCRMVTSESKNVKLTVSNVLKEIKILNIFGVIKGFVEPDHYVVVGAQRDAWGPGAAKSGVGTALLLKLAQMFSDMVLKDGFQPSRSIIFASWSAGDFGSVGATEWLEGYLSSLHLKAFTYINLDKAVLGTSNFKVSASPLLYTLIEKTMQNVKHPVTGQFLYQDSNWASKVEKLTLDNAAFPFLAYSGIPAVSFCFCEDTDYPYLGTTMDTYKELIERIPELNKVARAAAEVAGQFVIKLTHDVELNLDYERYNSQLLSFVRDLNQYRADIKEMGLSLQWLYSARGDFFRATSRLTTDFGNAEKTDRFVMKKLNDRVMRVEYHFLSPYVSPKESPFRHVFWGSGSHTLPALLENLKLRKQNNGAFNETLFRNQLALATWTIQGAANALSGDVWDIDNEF

According to article PMC7894301:

Target: native Machupo virus glycoprotein 1 (residues 84-244), yeast surface displayed (Machupo virus) (UniProt Q8AZ52)
Test: flow cytometry on cells

Q: With “solubilized ectodomain of human transferrin receptor 1 (amino acids 121 to 760), biotinylated (from UniProt P02786 121-760)” as the substance, how does the Kd read?
A: Its Kd is 1.5 µM.
